Values from PubChem BioAssay AID1224833 (University of Georgia, 2016)

Test: 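Host factors restraining rotavirus as candidate antiviral genes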 (primary screen)
Cells: monkey MA104 kidney cells
Knock-down reagent: siRNA pool against human genes, 50 nM
Timing: 48 h knock-down before infection; read 24 h after infection
Challenge: infection with rotavirus strain RV3 two days after transfection; infectious dose for this stage not given
Read-out: 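Rotavirus antigen per well by fluorescent immunoassay, normalised to non-targeting control wells on each plate and given as a standard z-score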
Direction: z-score vs non-targeting control: higher = more rotavirus replication than with non-targeting control
Active means: In these data the active calls have z-score vs non-targeting control at about -1 or lower, or at about 1 or higher
Calls: active = z-score beyond 1 either way; inactive = z-score within 1 of zero
In all, the deposit lists about 12,000 reagents; this is an unselected part. About 5,600 of all reagents (46%) count as active. 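Active calls cover z-scores past 1 in both directions, so they include lowered as well as raised rotavirus replication.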

z-score vs non-targeting control	Call	gene symbol
-1.66	active	GPR84 (G protein-coupled receptor 84)
1.1	active	TBL1XR1 (TBL1X/Y related 1)
1.35	active	KEAP1 (kelch like ECH associated protein 1)
-0.667	inactive	SAMM50 (SAMM50 sorting and assembly machinery component)
-3.17	active	GDI2 (GDP dissociation inhibitor 2)
0.709	inactive	F8A2 (coagulation factor VIII associated 2)
0.764	inactive	ALKBH2 (alkB homolog 2, alpha-ketoglutarate dependent dioxygenase)
-1.26	active	DUOX1 (dual oxidase 1)
-0.156	inactive	COLEC11 (collectin subfamily member 11)
-1.55	active	OR6C75 (olfactory receptor family 6 subfamily C member 75)
-0.0644	inactive	AUP1 (AUP1 lipid droplet regulating VLDL assembly factor)
-1.74	active	RGS14 (regulator of G protein signaling 14)
1.09	active	THAP3 (THAP domain containing 3)
0.817	inactive	OR1C1 (olfactory receptor family 1 subfamily C member 1)
-0.466	inactive	C6orf15 (chromosome 6 open reading frame 15)
0.655	inactive	DAB2IP (DAB2 interacting protein)
0.909	inactive	ARHGAP36 (Rho GTPase activating protein 36)
-1.04	active	ESRRG (estrogen related receptor gamma)
-0.565	inactive	XBP1 (X-box binding protein 1)
-0.009	inactive	H2BC5 (H2B clustered histone 5)
-0.463	inactive	NIPSNAP3B (nipsnap homolog 3B)
0.582	inactive	ILF2 (interleukin enhancer binding factor 2)
-2.42	active	FAM78B (family with sequence similarity 78 member B)
-0.48	inactive	ATP11AUN (ATP11A upstream neighbor lncRNA)
-1.91	active	BLOC1S4 (biogenesis of lysosomal organelles complex 1 subunit 4)
-0.476	inactive	TEX56P (testis expressed 56, pseudogene)
-0.133	inactive	PRAP1 (proline rich acidic protein 1)
0.0354	inactive	GPALPP1 (GPALPP motifs containing 1)
-0.667	inactive	FCRL4 (Fc receptor like 4)
-1.15	active	PSME1 (proteasome activator subunit 1)
-0.572	inactive	THEMIS2 (thymocyte selection associated family member 2)
-1.72	active	CLTA (clathrin light chain A)
-0.311	inactive	KRTAP5-1 (keratin associated protein 5-1)
-0.536	inactive	TFF1 (trefoil factor 1)
-0.75	inactive	BEX1 (brain expressed X-linked 1)
0.351	inactive	MAGOH (mago homolog, exon junction complex subunit)
-0.968	inactive	LGSN (lengsin, lens protein with glutamine synthetase domain)
1.96	active	SENP1 (SUMO specific peptidase 1)
0.257	inactive	PAK1IP1 (PAK1 interacting protein 1)
-0.565	inactive	XKR3 (XK related 3)
1.45	active	NTN3 (netrin 3)
1.14	active	RPS14 (ribosomal protein S14)
3.99	active	SNUPN (snurportin 1)
-0.896	inactive	NFASC (neurofascin)
-1.15	active	EPB41L4B (erythrocyte membrane protein band 4.1 like 4B)
1.47	active	OR13G1 (olfactory receptor family 13 subfamily G member 1)
0.976	inactive	RIC1 (RIC1 partner of RAB6A GEF complex)
-0.58	inactive	PSEN1 (presenilin 1)
1.2	active	FOXD4 (forkhead box D4)
0.779	inactive	CTSL (cathepsin L)
1.48	active	GPI (glucose-6-phosphate isomerase)
0.54	inactive	CCL3 (C-C motif chemokine ligand 3)
-0.128	inactive	MLLT11 (MLLT11 transcription factor 7 cofactor)
2.21	active	HS3ST2 (heparan sulfate-glucosamine 3-sulfotransferase 2)
-2.04	active	DMRT3 (doublesex and mab-3 related transcription factor 3)
-0.552	inactive	OR6B1 (olfactory receptor family 6 subfamily B member 1)
-0.902	inactive	TMX1 (thioredoxin related transmembrane protein 1)
1.15	active	FLOT1 (flotillin 1)
0.704	inactive	HMGA2 (high mobility group AT-hook 2)
0.722	inactive	TBC1D10A (TBC1 domain family member 10A)
0.181	inactive	PDPN (podoplanin)
-0.62	inactive	ADNP2 (ADNP homeobox 2)
0.75	inactive	KRTAP9-3 (keratin associated protein 9-3)
-2	active	SPDL1 (spindle apparatus coiled-coil protein 1)
-2.04	active	TPM3 (tropomyosin 3)
3.16	active	MRS2 (magnesium transporter MRS2)
0.496	inactive	UPF3A (UPF3A regulator of nonsense mediated mRNA decay)
1.41	active	DAO (D-amino acid oxidase)
-0.484	inactive	MAFB (MAF bZIP transcription factor B)
-0.868	inactive	HDC (histidine decarboxylase)
1.61	active	EXOSC9 (exosome component 9)
0.0939	inactive	NEUROG1 (neurogenin 1)
-0.542	inactive	OR13C8 (olfactory receptor family 13 subfamily C member 8)
0.971	inactive	TLCD5 (TLC domain containing 5)
-0.572	inactive	OR51E2 (olfactory receptor family 51 subfamily E member 2)
1.32	active	DDX21 (DExD-box helicase 21)
-0.933	inactive	OS9 (OS9 endoplasmic reticulum lectin)
1.07	active	ZNF583 (zinc finger protein 583)
-2.15	active	KPNA3 (karyopherin subunit alpha 3)
-1.11	active	TMED9 (transmembrane p24 trafficking protein 9)
-0.57	inactive	DNAJC6 (DnaJ heat shock protein family (Hsp40) member C6)
1.68	active	HSD3B1
-0.758	inactive	RCOR3 (REST corepressor 3)
-2.8	active	MS4A15 (membrane spanning 4-domains A15)
-0.794	inactive	DORIP1 (dopamine receptor interacting protein 1)
0.822	inactive	NEIL2 (nei like DNA glycosylase 2)
0.117	inactive	ARL6IP4 (ARF like GTPase 6 interacting protein 4)
-0.807	inactive	ATXN3 (ataxin 3)
-1.58	active	SLC34A1
-0.169	inactive	POFUT3 (protein O-fucosyltransferase 3)
-1.31	active	C2orf76 (chromosome 2 open reading frame 76)
1.07	active	MRPL32 (mitochondrial ribosomal protein L32)
-0.759	inactive	ARSB (arylsulfatase B)
-0.719	inactive	OR5M10 (olfactory receptor family 5 subfamily M member 10)
-2.57	active	PRDM16 (PR/SET domain 16)
-0.563	inactive	FAIM2 (Fas apoptotic inhibitory molecule 2)
-0.129	inactive	SPRR2E (small proline rich protein 2E)
1.13	active	KLK11 (kallikrein related peptidase 11)
-0.227	inactive	SH3YL1 (SH3 and SYLF domain containing 1)
-0.609	inactive	RRN3 (RNA polymerase I transcription factor RRN3)
-1.13	active	OPTN (optineurin)
-0.864	inactive	NDUFS5 (NADH:ubiquinone oxidoreductase subunit S5)
2.31	active	MAB21L2 (mab-21 like 2)
-0.886	inactive	SHISAL2A (shisa like 2A)
-1.16	active	MYH13 (myosin heavy chain 13)
0.621	inactive	SAXO1 (stabilizer of axonemal microtubules 1)
-0.226	inactive	TMEM268 (transmembrane protein 268)
0.361	inactive	LAPTM4A (lysosomal protein transmembrane 4 alpha)
2.36	active	SPARCL1 (SPARC like 1)
-2.11	active	WDR45 (WD repeat domain 45)
0.516	inactive	MS4A1 (membrane spanning 4-domains A1)
-1.3	active	THAP10 (THAP domain containing 10)
-1.24	active	CD5L (CD5 molecule like)
-0.521	inactive	PSCA (prostate stem cell antigen)
1.79	active	CD3G (CD3 gamma subunit of T-cell receptor complex)
0.337	inactive	RPF1 (ribosome production factor 1 homolog)
0.227	inactive	OR2T6 (olfactory receptor family 2 subfamily T member 6)
-0.0263	inactive	CNN2 (calponin 2)
-1.59	active	BTAF1 (B-TFIID TATA-box binding protein associated factor 1)
-0.137	inactive	CLASP1 (cytoplasmic linker associated protein 1)
-0.551	inactive	PRRC2A (proline rich coiled-coil 2A)
-0.887	inactive	SYT14 (synaptotagmin 14)
0.875	inactive	OTUB1 (OTU deubiquitinase, ubiquitin aldehyde binding 1)
1.38	active	SACK1A (scaffolding CK1 anchoring protein A)
-0.639	inactive	EXTL3 (exostosin like glycosyltransferase 3)
0.0519	inactive	CDCA2 (cell division cycle associated 2)
-2.69	active	PAX1 (paired box 1)
0.838	inactive	CD38 (CD38 molecule)
-0.241	inactive	RABL6 (RAB, member RAS oncogene family like 6)
-1.4	active	ACAA1 (acetyl-CoA acyltransferase 1)
-0.846	inactive	C5orf24 (chromosome 5 open reading frame 24)
1.3	active	ANKRD54 (ankyrin repeat domain 54)
2.56	active	PBRM1 (polybromo 1)
-0.545	inactive	TMPRSS12 (transmembrane serine protease 12)
1.73	active	ODAPH (odontogenesis associated phosphoprotein)
-1.19	active	ZNF585B (zinc finger protein 585B)
-1.19	active	ADAMTS19 (ADAM metallopeptidase with thrombospondin type 1 motif 19)
-0.678	inactive	ARAP2 (ArfGAP with RhoGAP domain, ankyrin repeat and PH domain 2)
0.72	inactive	CYP26B1 (cytochrome P450 family 26 subfamily B member 1)
-0.0017	inactive	ITGA10 (integrin subunit alpha 10)

Laid out differently: 12 of the entries above.
{"gene symbol":"ARHGAP36 (Rho GTPase activating protein 36)","z-score vs non-targeting control":0.909,"Call":"inactive"}
{"gene symbol":"ESRRG (estrogen related receptor gamma)","z-score vs non-targeting control":-1.04,"Call":"active"}
{"gene symbol":"XBP1 (X-box binding protein 1)","z-score vs non-targeting control":-0.565,"Call":"inactive"}
{"gene symbol":"H2BC5 (H2B clustered histone 5)","z-score vs non-targeting control":-0.009,"Call":"inactive"}
{"gene symbol":"NIPSNAP3B (nipsnap homolog 3B)","z-score vs non-targeting control":-0.463,"Call":"inactive"}
{"gene symbol":"ILF2 (interleukin enhancer binding factor 2)","z-score vs non-targeting control":0.582,"Call":"inactive"}
{"gene symbol":"FAM78B (family with sequence similarity 78 member B)","z-score vs non-targeting control":-2.42,"Call":"active"}
{"gene symbol":"ATP11AUN (ATP11A upstream neighbor lncRNA)","z-score vs non-targeting control":-0.48,"Call":"inactive"}
{"gene symbol":"BLOC1S4 (biogenesis of lysosomal organelles complex 1 subunit 4)","z-score vs non-targeting control":-1.91,"Call":"active"}
{"gene symbol":"TEX56P (testis expressed 56, pseudogene)","z-score vs non-targeting control":-0.476,"Call":"inactive"}
{"gene symbol":"PRAP1 (proline rich acidic protein 1)","z-score vs non-targeting control":-0.133,"Call":"inactive"}
{"gene symbol":"GPALPP1 (GPALPP motifs containing 1)","z-score vs non-targeting control":0.0354,"Call":"inactive"}
